What was measured:
Caco-2 cells = experiment: Tissue integrity by transepithelial electrical resistance; conditions: Caco-2, 4 hours, 100 μM apical
IPEC-J2 cells = experiment: as above; conditions: IPEC-J2, 4 hours, 100 μM apical
T84 cells = experiment: as above; conditions: T84, 4 hours, 100 μM apical
[1] = tested on: human or porcine intestinal cells grown on inserts; conditions: 4 hours of exposure, range over Caco-2, T84, IPEC-J2

Substance	transepithelial electrical resistance (Caco-2 cells) [ohm.cm2]	transepithelial electrical resistance (IPEC-J2 cells) [ohm.cm2]	transepithelial electrical resistance (T84 cells) [ohm.cm2]	decrease in transepithelial electrical resistance [1]
Destruxin A	281	768	373	
Destruxin B	282	763	377	
Enniatin A1	95	128	122	67-83%

Source: US20220133842A1 (priority 2019, published 2022)
